## DMS reactivity of the HIV-1 5' RNA in monomer and dimer

The measurements come from Ye et al. 2022 (doi:10.1038/s41594-022-00746-2).

RNA: 5' end of the HIV-1 NL4-3 genome, made in vitro. Positions 1-437 read:
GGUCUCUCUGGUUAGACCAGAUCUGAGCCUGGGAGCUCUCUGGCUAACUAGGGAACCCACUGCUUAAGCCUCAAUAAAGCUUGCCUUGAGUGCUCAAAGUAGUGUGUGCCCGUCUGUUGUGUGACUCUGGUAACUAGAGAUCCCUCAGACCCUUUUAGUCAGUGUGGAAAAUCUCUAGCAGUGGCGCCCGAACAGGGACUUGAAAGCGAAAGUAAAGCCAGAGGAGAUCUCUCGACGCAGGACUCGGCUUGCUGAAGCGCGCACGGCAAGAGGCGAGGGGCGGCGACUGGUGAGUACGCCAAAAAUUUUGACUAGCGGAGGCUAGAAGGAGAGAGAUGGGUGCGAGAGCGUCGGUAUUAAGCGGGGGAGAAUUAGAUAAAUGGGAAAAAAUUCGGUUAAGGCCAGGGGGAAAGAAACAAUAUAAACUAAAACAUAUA

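Mutant RNA libraries with 1G, 2G or 3G starts, with or without cap, were folded at 37 °C for 30 min. High salt was 300 mM KCl and 5 mM MgCl2, low salt 40 mM KCl and 0.1 mM MgCl2; monomer and dimer were parted on a native gel. Each band was probed in the gel with DMS (170 mM, 15 min, 37 °C), with ethanol as control, and sequenced.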

Scale: normalised reactivity, A and C only; low values point to paired or protected bases, higher values to unpaired ones.
One numbering serves 1G, 2G and 3G.
A position is written with its base.

| position | domain | 3G uncapped low-salt dimer | 3G uncapped low-salt monomer |
|---|---|---|---|
| A19 | TAR | 0.05 | 0.03 |
| A21 | TAR | 0.55 | 0.61 |
| C23 | TAR | 1.43 | 1.50 |
| A26 | TAR | 0.08 | 0.08 |
| C28 | TAR | 0.05 | 0.03 |
| C29 | TAR | 0.10 | 0.11 |
| A34 | TAR | 1.12 | 1.27 |
| C36 | TAR | 0.05 | 0.03 |
| C38 | TAR | 0.05 | 0.03 |
| C40 | TAR | 0.05 | 0.03 |
| C44 | TAR | 0.05 | 0.03 |
| A46 | TAR | 0.05 | 0.03 |
| A47 | TAR | 0.15 | 0.13 |
| C48 | TAR | 0.05 | 0.03 |
| A50 | TAR | 0.15 | 0.13 |
| A54 | TAR | 0.16 | 0.15 |
| A55 | TAR | 0.20 | 0.20 |
| C56 | TAR | 0.05 | 0.03 |
| C57 | TAR | 0.05 | 0.03 |
| C58 | PolyA | 0.05 | 0.03 |
| A59 | PolyA | 0.74 | 0.84 |
| C60 | PolyA | 0.55 | 0.79 |
| C63 | PolyA | 0.53 | 0.65 |
| A66 | PolyA | 0.82 | 0.84 |
| A67 | PolyA | 0.69 | 1.00 |
| C69 | PolyA | 0.11 | 0.07 |
| C70 | PolyA | 0.06 | 0.03 |
| C72 | PolyA | 0.14 | 0.10 |
| A73 | PolyA | 0.05 | 0.04 |
| A74 | PolyA | 0.85 | 0.99 |
| A76 | PolyA | 0.26 | 0.29 |
| A77 | PolyA | 0.74 | 0.87 |
| A78 | PolyA | 0.75 | 0.92 |
| C80 | PolyA | 0.25 | 0.30 |
| C84 | PolyA | 0.39 | 0.22 |
| C85 | PolyA | 0.29 | 0.15 |
| A89 | PolyA | 0.66 | 0.72 |
| C93 | PolyA | 0.06 | 0.03 |
| C95 | PolyA | 0.43 | 0.46 |
| A96 | PolyA | 0.31 | 0.35 |
| A97 | PolyA | 0.60 | 0.71 |
| A98 | PolyA | 0.60 | 0.63 |
| A101 | PolyA | 0.30 | 0.31 |
| C109 | U5 | 0.08 | 0.08 |
| C110 | U5 | 0.08 | 0.15 |
| C111 | U5 | 0.13 | 0.31 |
| C114 | none | 0.20 | 0.19 |
| A124 | none | 1.22 | 1.41 |
| C125 | PAS | 0.08 | 0.06 |
| C127 | PAS | 0.05 | 0.03 |
| A132 | PBS | 0.43 | 0.55 |
| A133 | PBS | 1.33 | 1.57 |
| C134 | PBS | 0.19 | 0.16 |
| A136 | PBS | 0.11 | 0.10 |
| A138 | PBS | 0.14 | 0.13 |
| A140 | PBS | 0.39 | 0.45 |
| C142 | PBS | 0.06 | 0.08 |
| C143 | PBS | 0.05 | 0.03 |
| C144 | PBS | 0.05 | 0.03 |
| C146 | PBS | 0.10 | 0.12 |
| A147 | PBS | 0.38 | 0.40 |
| A149 | PBS | 0.07 | 0.09 |
| C150 | PBS | 0.05 | 0.07 |
| C151 | PBS | 0.89 | 0.85 |
| C152 | PBS | 0.84 | 0.85 |
| A157 | PBS | 0.89 | 0.96 |
| C160 | PBS | 0.09 | 0.10 |
| A161 | PBS | 0.47 | 0.51 |
| A168 | PBS | 0.50 | 0.49 |
| A169 | PBS | 0.78 | 0.75 |
| A170 | PBS | 0.49 | 0.55 |
| A171 | PBS | 0.40 | 0.46 |

3 of these entries, quoted again:

A89 (domain PolyA) read 3G uncapped low-salt dimer 0.66; 3G uncapped low-salt monomer 0.72.
A77 (domain PolyA) read 3G uncapped low-salt dimer 0.74; 3G uncapped low-salt monomer 0.87.
C127 (domain PAS) read 3G uncapped low-salt dimer 0.05; 3G uncapped low-salt monomer 0.03.